For six molecules, IC50 (pseudovirus neutralization) and IC80 (pseudovirus neutralization) results are on record in US20240109955A1.

Sequences and labels used below:
B1: MX1055 (protein)
chain 1: EIVMTQSPAILSVSPGERATLSCRASQSVAINLAWYQQKPGQAPRLLIYAASSRATGIPGRFSGSGSETNFTLTISSLQSGDFAVYYCQQYITWPPSYTFGQGTKLEIKGGSSGDTVMTQSPLSLPVTPGEPASISCRSSQSLLNSNGYNYLDWYVQKPGQSPQLLIYLGSNRASGVPDRFSGSGSGTDFTLKISRVEAEDVGVYYCMQPLQTPLFTFGPGTKVEIKGGGGSGGSGSGGGGSASGSGQVTLRESGPALVKPTQTLTLTCTFSGFSLSTRGVCVSWIRQPPGKALEWLAFIDWDDDKYYNTSLKTRLTISKDTSKNQVVLTMTNVHPVDTATYYCARISSHHGSSWCTTFDYWGQGALVTVSAGGSSGEVQLVESGGALIQPGGSLRLSCAASGIIVSANYMSWVRQAPGKGLEWVSVIYSGGSTFYADSVKGRFTISRDNSKNTLYLEMNSLRAEDTAVYYCARDAPILGVSDWGQGTLVTVSSASGGSGDKTHTCPPCPAPELLGGPSVFLFPPKPKDTLMISRTPEVTCVVVDVSHEDPEVKFNWYVDGVEVHNAKTKPREEQYNSYVVSVLTVLHQDWLNGKEYKCKVSNKALPAPIEKTISKAKGQPREPQVYTLPPCRDELTKNQVSLWCLVKGFYPSDIAVEWESNGQPENNYKTTPPVLDSDGSFFKKLTVDKSRWQQGNVFSCSVLHEALHSHYTQKSLSLSPG
chain 2: DTVMTQSPLSLPVTPGEPASISCRSSQSLLNSNGYNYLDWYVQKPGQSPQLLIYLGSNRASGVPDRFSGSGSGTDFTLKISRVEAEDVGVYYCMQPLQTPLFTFGPGTKVEIKGGSSGQTVVTQEPSFSVSPGGTVTLTCGLSSGSVSTAYFPSWYQQTPGQAPRTLIYGTNTRSSGVPDRFSGSILGNKAALTITGAQADDESDYYCVLYMGRGIVVFGGGTKLTVLGGGGSGGSGSGGGGSASGSGQVQLVESGGGVVQPGRSLRLSCAASGFTLSSYGMHWVRQAPGKGLEWVAVISYDGSNKYYVDSVKGRFTISRDNSKNTLYLQMNSLRAEDTAVYYCRWAYWELLPDYYYGMDVWGQGTTVTVSSGGSSGQVTLRESGPALVKPTQTLTLTCTFSGFSLSTRGVCVSWIRQPPGKALEWLAFIDWDDDKYYNTSLKTRLTISKDTSKNQVVLTMTNVHPVDTATYYCARISSHHGSSWCTTFDYWGQGALVTVSAASGGSGDKTHTCPPCPAPELLGGPSVFLFPPKPKDTLMISRTPEVTCVVVDVSHEDPEVKFNWYVDGVEVHNAKTKPREEQYNSYVVSVLTVLHQDWLNGKEYKCKVSNKALPAPIEKTISKAKGQPREPQVCTLPPSRDELTKNQVSLSCAVKGFYPSDIAVEWESNGQPENNYKTTPPVLDSDGSFFLVSKLTVDKSRWQQGNVFSCSVLHEALHSHYTQKSLSLSPG
B2: MX1043 (bispecific antibody)
chain: EIVLTQSPGTLSLSPGETATLSCRASQSFSSDLAWYQQKPGQAPRLLIYGASSRATGIPDRFSGSGSGTDFTLTISRLEPADFAVYYCQQYGSSPPVTFGGGTKVEIKGGSSGQTVVTQEPSFSVSPGGTVTLTCGLSSGSVSTAYFPSWYQQTPGQAPRTLIYGTNTRSSGVPDRFSGSILGNKAALTITGAQADDESDYYCVLYMGRGIVVFGGGTKLTVLGGGGSGGSGSGGGGSASGSGQVQLVESGGGVVQPGRSLRLSCAASGFTLSSYGMHWVRQAPGKGLEWVAVISYDGSNKYYVDSVKGRFTISRDNSKNTLYLQMNSLRAEDTAVYYCRWAYWELLPDYYYGMDVWGQGTTVTVSSGGSSGEVQLVESGGGLIQPGGSLRLSCAASGVIVSYNYMNWVRQAPGKGLEWVSVIYSGGSTFYADSVRGRFTISRDNSKNTLYLQMNSLRAEDTAVYYCARDLGPAGAFDIWGLGTMVTVSSASGGSGDKTHTCPPCPAPELLGGPSVFLFPPKPKDTLMISRTPEVTCVVVDVSHEDPEVKFNWYVDGVEVHNAKTKPREEQYNSYVVSVLTVLHQDWLNGKEYKCKVSNKALPAPIEKTISKAKGQPREPQVYTLPPSRDELTKNQVSLTCLVKGFYPSDIAVEWESNGQPENNYKTTPPVLDSDGSFFKKLTVDKSRWQQGNVFSCSVLHEALHSHYTQKSLSLSPG
B3: MX1042 (bispecific antibody)
chain: DTVMTQSPLSLPVTPGEPASISCRSSQSLLNSNGYNYLDWYVQKPGQSPQLLIYLGSNRASGVPDRFSGSGSGTDFTLKISRVEAEDVGVYYCMQPLQTPLFTFGPGTKVEIKGGSSGEIVLTQSPGTLSLSPGETATLSCRASQSFSSDLAWYQQKPGQAPRLLIYGASSRATGIPDRFSGSGSGTDFTLTISRLEPADFAVYYCQQYGSSPPVTFGGGTKVEIKGGGGSGGSGSGGGGSASGSGEVQLVESGGGLIQPGGSLRLSCAASGVIVSYNYMNWVRQAPGKGLEWVSVIYSGGSTFYADSVRGRFTISRDNSKNTLYLQMNSLRAEDTAVYYCARDLGPAGAFDIWGLGTMVTVSSGGSSGQVTLRESGPALVKPTQTLTLTCTFSGFSLSTRGVCVSWIRQPPGKALEWLAFIDWDDDKYYNTSLKTRLTISKDTSKNQVVLTMTNVHPVDTATYYCARISSHHGSSWCTTFDYWGQGALVTVSAASGGSGDKTHTCPPCPAPELLGGPSVFLFPPKPKDTLMISRTPEVTCVVVDVSHEDPEVKFNWYVDGVEVHNAKTKPREEQYNSYVVSVLTVLHQDWLNGKEYKCKVSNKALPAPIEKTISKAKGQPREPQVYTLPPSRDELTKNQVSLTCLVKGFYPSDIAVEWESNGQPENNYKTTPPVLDSDGSFFKKLTVDKSRWQQGNVFSCSVLHEALHSHYTQKSLSLSPG
B4: MX1089 (protein)
chain 1: QTVVTQEPSFSVSPGGTVTLTCGLSSGSVSTAYFPSWYQQTPGQAPRTLIYGTNTRSSGVPDRFSGSILGNKAALTITGAQADDESDYYCVLYMGRGIVVFGGGTKLTVLGGSSGEIVMTQSPAILSVSPGERATLSCRASQSVAINLAWYQQKPGQAPRLLIYAASSRATGIPGRFSGSGSETNFTLTISSLQSGDFAVYYCQQYITWPPSYTFGQGTKLEIKGGGGSGGSGSGGGGSASGSGEVQLVESGGALIQPGGSLRLSCAASGIIVSANYMSWVRQAPGKGLEWVSVIYSGGSTFYADSVKGRFTISRDNSKNTLYLEMNSLRAEDTAVYYCARDAPILGVSDWGQGTLVTVSSGGSSGQVQLVESGGGVVQPGRSLRLSCAASGFTLSSYGMHWVRQAPGKGLEWVAVISYDGSNKYYVDSVKGRFTISRDNSKNTLYLQMNSLRAEDTAVYYCRWAYWELLPDYYYGMDVWGQGTTVTVSSASGGSGDKTHTCPPCPAPELLGGPSVFLFPPKPKDTLMISRTPEVTCVVVDVSHEDPEVKFNWYVDGVEVHNAKTKPREEQYNSYVVSVLTVLHQDWLNGKEYKCKVSNKALPAPIEKTISKAKGQPREPQVYTLPPCRDELTKNQVSLWCLVKGFYPSDIAVEWESNGQPENNYKTTPPVLDSDGSFFKKLTVDKSRWQQGNVFSCSVLHEALHSHYTQKSLSLSPG
chain 2: DTVMTQSPLSLPVTPGEPASISCRSSQSLLNSNGYNYLDWYVQKPGQSPQLLIYLGSNRASGVPDRFSGSGSGTDFTLKISRVEAEDVGVYYCMQPLQTPLFTFGPGTKVEIKGGSSGEIVLTQSPGTLSLSPGERATLSCRASQSVSSSYLAWYQQKPGQAPRLLIYSASSRATGIPDRFSGSGSGTDFTLTISRLEPEDFAVYFCQQYVGLTGWTFGQGTKVEIKGGGGSGGSGSGGGGSASGSGQMQLVQSGPEVKKPGTSVKVSCKASGFTFTSSAVQWVRQRQRLEWIGWIVVGSGNTNYAQKFQERVTITRDMSTSTAYMELSSLRSEDTAVYYCAAPNCSNVVCYDGFDIWGQGTMVTVSSGGSSGQVTLRESGPALVKPTQTLTLTCTFSGFSLSTRGVCVSWIRQPPGKALEWLAFIDWDDDKYYNTSLKTRLTISKDTSKNQVVLTMTNVHPVDTATYYCARISSHHGSSWCTTFDYWGQGALVTVSAASGGSGDKTHTCPPCPAPELLGGPSVFLFPPKPKDTLMISRTPEVTCVVVDVSHEDPEVKFNWYVDGVEVHNAKTKPREEQYNSYVVSVLTVLHQDWLNGKEYKCKVSNKALPAPIEKTISKAKGQPREPQVCTLPPSRDELTKNQVSLSCAVKGFYPSDIAVEWESNGQPENNYKTTPPVLDSDGSFFLVSKLTVDKSRWQQGNVFSCSVLHEALHSHYTQKSLSLSPG
B5: E12 (antibody, V domains shown)
VH: EVQLVESGGGLIQPGGSLRLSCAASGVIVSYNYMNWVRQAPGKGLEWVSVIYSGGSTFYADSVRGRFTISRDNSKNTLYLQMNSLRAEDTAVYYCARDLGPAGAFDIWGLGTMVTVSS
VL: EIVLTQSPGTLSLSPGETATLSCRASQSFSSDLAWYQQKPGQAPRLLIYGASSRATGIPDRFSGSGSGTDFTLTISRLEPADFAVYYCQQYGSSPPVTFGGGTKVEIK
B6: MX1069 (protein)
chain 1: QTVVTQEPSFSVSPGGTVTLTCGLSSGSVSTAYFPSWYQQTPGQAPRTLIYGTNTRSSGVPDRFSGSILGNKAALTITGAQADDESDYYCVLYMGRGIVVFGGGTKLTVLGGSSGEIVLTQSPGTLSLSPGETATLSCRASQSFSSDLAWYQQKPGQAPRLLIYGASSRATGIPDRFSGSGSGTDFTLTISRLEPADFAVYYCQQYGSSPPVTFGGGTKVEIKGGGGSGGSGSGGGGSASGSGEVQLVESGGGLIQPGGSLRLSCAASGVIVSYNYMNWVRQAPGKGLEWVSVIYSGGSTFYADSVRGRFTISRDNSKNTLYLQMNSLRAEDTAVYYCARDLGPAGAFDIWGLGTMVTVSSGGSSGQVQLVESGGGVVQPGRSLRLSCAASGFTLSSYGMHWVRQAPGKGLEWVAVISYDGSNKYYVDSVKGRFTISRDNSKNTLYLQMNSLRAEDTAVYYCRWAYWELLPDYYYGMDVWGQGTTVTVSSASGGSGDKTHTCPPCPAPELLGGPSVFLFPPKPKDTLMISRTPEVTCVVVDVSHEDPEVKFNWYVDGVEVHNAKTKPREEQYNSYVVSVLTVLHQDWLNGKEYKCKVSNKALPAPIEKTISKAKGQPREPQVYTLPPCRDELTKNQVSLWCLVKGFYPSDIAVEWESNGQPENNYKTTPPVLDSDGSFFKKLTVDKSRWQQGNVFSCSVLHEALHSHYTQKSLSLSPG
chain 2: EIVLTQSPGTLSLSPGETATLSCRASQSFSSDLAWYQQKPGQAPRLLIYGASSRATGIPDRFSGSGSGTDFTLTISRLEPADFAVYYCQQYGSSPPVTFGGGTKVEIKGGSSGDTVMTQSPLSLPVTPGEPASISCRSSQSLLNSNGYNYLDWYVQKPGQSPQLLIYLGSNRASGVPDRFSGSGSGTDFTLKISRVEAEDVGVYYCMQPLQTPLFTFGPGTKVEIKGGGGSGGSGSGGGGSASGSGQVTLRESGPALVKPTQTLTLTCTFSGFSLSTRGVCVSWIRQPPGKALEWLAFIDWDDDKYYNTSLKTRLTISKDTSKNQVVLTMTNVHPVDTATYYCARISSHHGSSWCTTFDYWGQGALVTVSAGGSSGEVQLVESGGGLIQPGGSLRLSCAASGVIVSYNYMNWVRQAPGKGLEWVSVIYSGGSTFYADSVRGRFTISRDNSKNTLYLQMNSLRAEDTAVYYCARDLGPAGAFDIWGLGTMVTVSSASGGSGDKTHTCPPCPAPELLGGPSVFLFPPKPKDTLMISRTPEVTCVVVDVSHEDPEVKFNWYVDGVEVHNAKTKPREEQYNSYVVSVLTVLHQDWLNGKEYKCKVSNKALPAPIEKTISKAKGQPREPQVCTLPPSRDELTKNQVSLSCAVKGFYPSDIAVEWESNGQPENNYKTTPPVLDSDGSFFLVSKLTVDKSRWQQGNVFSCSVLHEALHSHYTQKSLSLSPG

The test concerns the target SARS-CoV-2 spike protein, Omicron sublineage BA.2.75.2 (SARS-CoV-2), P0DTC2. The experiment in a line: cell-based or functional assay.
Molecule B1 displayed an IC50 (pseudovirus neutralization) of 2.32 nM and an IC80 (pseudovirus neutralization) of 7.23 nM.
On the same counts, the results for B2 are 2.06 nM and 4.01 nM.
On the same counts, the results for B3 are 0.01 nM and 0.05 nM.
On the same counts, the results for B4 are 7.16 nM and 7.84 nM.
Consider B5, for which the IC50 (pseudovirus neutralization) amounted to 6.99 nM and the IC80 (pseudovirus neutralization) stood at 40.1 nM.
On the same counts, the results for B6 are 1.81 nM and 3.33 nM.
